Patent publication US7635567B2, “Method for determination of the responsiveness of an individual to mistletoe lectin” (dated 2009)

Target: rViscumin (Viscum album, UniProt P81446, E393Q/H331R/I468S/Q471K)
Conditions: rViscumin 1 μg/ml, 1 hour; detected with mAb TA5

Substance: Galβ1-4Glcβ1-1Cer
- rViscumin (binding to the glycosphingolipid, TLC overlay): very weak binding
